Target: SARS-CoV-2 Mpro (Severe acute respiratory syndrome coronavirus 2, UniProt P0DTD1)
Settings: 2 µM Mpro, 20 µM DEK, rt, 20 mM HEPES pH 7.5

Compound: O=C1C2(CCC13OC3c1ccccc1)OC2c1ccccc1 (stereo not shown) [DEK 9]
- covalent adduct with Mpro (in words): single adduct of +186 Da
